A mixed list of measured activities; the numbers were collected in NIAID ChemDB.

All rows: whole-cell or culture tests; agent: Mycobacterium avium complex

Neighbouring rows are from separate reports. a–b is a range or a potency band. A number after MIC or MFC names an inhibition level or a share of isolates.

compound	strain	read-out	value
CCCOc1ccc(NCc2cnc3nc(N)nc(N)c3c2C)cc1OC	NJ3404	MIC	≤0.13 µg/mL
NNC(=O)c1ccncc1	N-269 (HIV-)	MIC	4 µg/mL
Cc1ccc(C)c(NCc2cnc3nc(N)nc(N)c3c2C)c1	NJ3404	MIC	≤0.13 µg/mL
CC1(C)N=C(N)N=C(N)N1OCCCOc1cc(Cl)c(Cl)cc1Cl	690	MIC	1 µg/mL
CC1(C)N=C(N)N=C(N)N1OCCCOc1cc(Cl)c(Cl)cc1Cl	9141	MIC	1 µg/mL
Cc1c(CNc2ccc3c4c(cccc24)-c2ccccc2-3)cnc2nc(N)nc(N)c12	NJ3404	MIC	≤0.13 µg/mL
CC[C@H]1OC(=O)[C@H](C)[C@@H](O)[C@H](C)[C@@H](O[C@@H]2O[C@H](C)C[C@H](N(C)C)[C@H]2O)C(C)(O)C[C@@H](C)/C(=N\OCCCOc2ccccc2)[C@H](C)[C@@H](O)[C@]1(C)O	20096 (clarithromycin-resistant)	MIC	>50 µg/mL
CCc1nc(N)nc(N)c1-c1ccc(Cl)cc1	DW26	MIC	32 µg/mL
CO[C@H]1/C=C/O[C@@]2(C)Oc3c(C)c(O)c4c(O)c(c5c(c4c3C2=O)NC2(CCN(CC(C)C)CC2)N=5)=NC(=O)/C(C)=C\C=C\[C@H](C)[C@H](O)[C@@H](C)[C@@H](O)[C@@H](C)[C@H](OC(C)=O)[C@@H]1C	N-976 (HIV+)	MIC	0.8 µg/mL
CCCCCCCCCCCCCCNNC(=O)O[C@H]1[C@H](O[C@@H]2[C@@H](C)[C@H](O[C@H]3C[C@@](C)(OC)[C@@H](OC(C)=O)[C@H](C)O3)[C@@H](C)C(=O)O[C@H](CC)[C@@](C)(O)[C@H](O)[C@@H](C)/C(=N/OCCCC3CCCCC3)[C@H](C)CC2(C)O)O[C@H](C)C[C@@H]1N(C)C	20039 (clarithromycin-susceptible)	MIC	>50 µg/mL
COc1cc(NCc2cnc3nc(N)nc(N)c3c2C)cc(C(F)(F)F)c1	NJ3404	MIC	≤0.13 µg/mL
CO[C@H]1/C=C/O[C@@]2(C)Oc3c(C)c(O)c4c(=O)c(c5oc6cc(N7CCN(CC(C)C)CC7)cc(=O)c6nc5c4c3=C2O)NC(=O)/C(C)=C\C=C\[C@H](C)[C@H](O)[C@@H](C)[C@@H](O)[C@@H](C)[C@H](OC(C)=O)[C@@H]1C	N-981 (HIV+)	MIC	0.0625 µg/mL
CC[C@H]1OC(=O)[C@H](C)[C@@H](OC(=O)c2ccccc2)[C@H](C)[C@@H](O[C@@H]2O[C@H](C)C[C@H](N(C)C)[C@H]2O)C(C)(O)C[C@@H](C)/C(=N\OCCCOc2ccccc2)[C@H](C)[C@@H](O)[C@]1(C)O	20096 (clarithromycin-resistant)	MIC	6.25 µg/mL
CN1CCCC1CCN=c1cc2n(-c3ccc(Cl)cc3)c3ccccc3nc-2cc1Nc1ccccc1	10 strains (HIV+)	MIC50	1.6 µg/mL
CCc1c(CNc2cc(OC)ccc2OC)cnc2nc(N)nc(N)c12	NJ3404	MIC	≤0.13 µg/mL
NNC(=O)c1ccncc1	11005	MIC	20–25 µg/mL
CC[C@H]1OC(=O)[C@H](C)[C@@H](O[C@H]2C[C@@](C)(OC)[C@@H](OC(C)=O)[C@H](C)O2)[C@H](C)[C@@H](O[C@@H]2O[C@H](C)C[C@H](N(C)C)[C@H]2O)C(C)(O)C[C@@H](C)/C(=N\OC)[C@H](C)[C@@H](O)[C@]1(C)O	20096 (clarithromycin-resistant)	MIC	>50 µg/mL
C[C@@H]1CN(c2c(F)c(N)c3c(=O)c(C(=O)O)cn(C4CC4)c3c2F)C[C@H](C)N1	Isolate 90-0738	MIC	2.5 µg/mL
Clc1ccc(Nc2cc3nc4ccccc4n(-c4ccc(Cl)cc4)c-3cc2=NCCCN2CCCC2)cc1	10 strains (HIV+)	MIC90	2 µg/mL
CN[C@@H]1[C@H](O[C@H]2[C@H](O[C@H]3[C@H](O)[C@@H](O)[C@H](N=C(N)N)[C@@H](O)[C@@H]3N=C(N)N)O[C@@H](C)[C@]2(O)C=O)O[C@@H](CO)[C@H](O)[C@H]1O	N-325 (HIV-)	MIC	4 µg/mL
Cc1c(CNc2cc(C(F)(F)F)ccc2F)cnc2nc(N)nc(N)c12	NJ168	MIC	≤0.13 µg/mL